One may read the IC50 as the point on the concentration scale where inhibition reaches its midpoint. The low end stands for greater potency, the high end for weaker potency.

The chains behind the UniProt entries cited, without tags or fusion partners. Where a name states a change or a piece, a line headed by the entry shows the natural chain unless it says otherwise. Residues count along the entry.
UniProt P18916, 23-519 limits assumed: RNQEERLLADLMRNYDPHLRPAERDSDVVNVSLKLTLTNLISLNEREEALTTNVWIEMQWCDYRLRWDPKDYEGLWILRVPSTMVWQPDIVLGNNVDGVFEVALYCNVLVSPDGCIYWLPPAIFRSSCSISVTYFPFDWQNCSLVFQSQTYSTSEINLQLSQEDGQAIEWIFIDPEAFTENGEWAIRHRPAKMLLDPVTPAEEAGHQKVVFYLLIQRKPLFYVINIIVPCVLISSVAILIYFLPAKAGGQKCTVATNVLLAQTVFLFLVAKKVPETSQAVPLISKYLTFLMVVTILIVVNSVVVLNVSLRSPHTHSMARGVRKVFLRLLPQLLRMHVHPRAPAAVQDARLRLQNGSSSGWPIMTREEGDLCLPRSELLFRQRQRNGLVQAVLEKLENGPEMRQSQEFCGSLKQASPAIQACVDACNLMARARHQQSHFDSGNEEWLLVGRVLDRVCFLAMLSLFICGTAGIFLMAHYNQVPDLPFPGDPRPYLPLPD
UniProt P25108, 21-457 limits assumed: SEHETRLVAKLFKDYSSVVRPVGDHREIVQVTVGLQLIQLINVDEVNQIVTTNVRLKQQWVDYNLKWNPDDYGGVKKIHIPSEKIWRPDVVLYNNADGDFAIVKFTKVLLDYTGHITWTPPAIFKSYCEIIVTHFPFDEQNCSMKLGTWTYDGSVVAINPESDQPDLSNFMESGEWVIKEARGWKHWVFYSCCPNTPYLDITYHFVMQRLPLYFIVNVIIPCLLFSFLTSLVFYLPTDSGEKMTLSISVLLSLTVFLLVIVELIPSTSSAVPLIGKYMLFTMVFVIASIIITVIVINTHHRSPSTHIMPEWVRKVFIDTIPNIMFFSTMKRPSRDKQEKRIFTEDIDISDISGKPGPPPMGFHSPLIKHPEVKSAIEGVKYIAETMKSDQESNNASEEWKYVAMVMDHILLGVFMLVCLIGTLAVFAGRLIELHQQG
UniProt P25109, 24-501 partner limits assumed: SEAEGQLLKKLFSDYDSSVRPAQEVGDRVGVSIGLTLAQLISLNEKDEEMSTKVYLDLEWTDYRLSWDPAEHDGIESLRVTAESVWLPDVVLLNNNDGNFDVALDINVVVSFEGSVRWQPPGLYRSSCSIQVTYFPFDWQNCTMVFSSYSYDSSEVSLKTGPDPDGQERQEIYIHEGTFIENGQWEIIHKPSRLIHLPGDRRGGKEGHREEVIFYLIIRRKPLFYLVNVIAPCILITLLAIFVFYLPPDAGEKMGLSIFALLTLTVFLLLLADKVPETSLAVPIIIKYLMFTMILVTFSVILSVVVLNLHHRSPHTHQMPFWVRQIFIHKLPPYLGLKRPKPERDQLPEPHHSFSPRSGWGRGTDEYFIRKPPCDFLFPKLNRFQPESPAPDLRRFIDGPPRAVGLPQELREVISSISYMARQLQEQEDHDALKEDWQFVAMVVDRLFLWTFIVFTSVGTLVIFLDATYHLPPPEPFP
UniProt P25110, 22-517 limits assumed: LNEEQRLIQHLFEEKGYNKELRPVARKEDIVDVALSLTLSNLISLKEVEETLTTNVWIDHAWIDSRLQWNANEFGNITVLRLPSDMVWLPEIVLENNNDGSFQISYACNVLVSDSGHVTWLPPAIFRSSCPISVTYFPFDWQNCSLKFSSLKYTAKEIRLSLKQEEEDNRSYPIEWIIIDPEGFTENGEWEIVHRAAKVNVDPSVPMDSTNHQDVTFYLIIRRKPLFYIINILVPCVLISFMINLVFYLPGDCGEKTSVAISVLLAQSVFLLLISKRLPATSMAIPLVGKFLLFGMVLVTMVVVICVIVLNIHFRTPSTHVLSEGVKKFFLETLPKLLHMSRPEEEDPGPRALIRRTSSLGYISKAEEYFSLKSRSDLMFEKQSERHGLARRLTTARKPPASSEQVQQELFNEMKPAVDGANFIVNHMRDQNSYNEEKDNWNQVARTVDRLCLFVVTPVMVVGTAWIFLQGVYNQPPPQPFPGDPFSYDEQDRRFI

This assay concerns the target rat (α1)2β1δγ nAChR (Rattus norvegicus, UniProt P18916+P25108+P25109+P25110). The assay is described as follows: two-electrode voltage-clamp inhibition of ACh-evoked currents, (α1)2β1δγ nAChR in Xenopus oocytes. The conditions noted are these: Xenopus laevis oocytes, −70 mV, 3-min preincubation. (Two-electrode voltage clamp holds a large cell at a set potential and records current.)

Bounds are passed on as bounds.

`CC(C)C[C@@H]1NC(=O)[C@H](CC(=O)O)NC(=O)[C@H](CO)NC(=O)[C@H](Cc2c[nH]cn2)NC(=O)[C@H](CCC(N)=O)NC(=O)[C@H](C(C)C)NC(=O)[C@H](CCC(N)=O)NC(=O)[C@@H]2CSSC[C@H](NC(=O)[C@@H](NC(=O)[C@H](CC(=O)O)NC(=O)[C@H](C)NC(=O)CNC(=O)[C@H](CO)NC(=O)[C@H](C)N)[C@@H](C)O)C(=O)N[C@@H](CSSC[C@@H](C(=O)O)NC1=O)C(=O)N[C@@H](CO)C(=O)N[C@@H](CC(N)=O)C(=O)N1CCC[C@H]1C(=O)N[C@@H](C)C(=O)N2` [CIC]: the half-inhibitory concentration (IC50) was above 10 µM.
Next, `CC(C)C[C@@H]1NC(=O)[C@H](CC(=O)O)NC(=O)[C@H](CO)NC(=O)[C@H](Cc2c[nH]cn2)NC(=O)[C@H](CCC(N)=O)NC(=O)[C@H](C(C)C)NC(=O)[C@H](CCC(N)=O)NC(=O)[C@@H]2CSSC[C@H](N)C(=O)N[C@@H](CSSC[C@@H](C(=O)O)NC1=O)C(=O)N[C@@H](CO)C(=O)N[C@@H](CC(N)=O)C(=O)N1CCC[C@H]1C(=O)N[C@@H](C)C(=O)N2` [Δ-CIC]: above 10 µM.

Values taken from PMC8001506 (Marine Drugs, 2021).
